Consider 54 molecules from PubChem BioAssay AID1845 (The Scripps Research Institute Molecular Screening Center, 2009).

This is a selection; strong and weak results do not stand in their true shares. Calls of active or inactive are those of the source. Cut-off read from the data, not from the text of the source: active = inhibition above about 37%; inactive = the rest.

The experiment in a line: compounds displacing fluorescent DNA intercalator, primary screen, artefact control for HCV NS3 helicase inhibitor project, biochemical, FID fluorescence (AID 1845).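 Note: 0% = vehicle and 100% = reference compound; higher means more ethidium bromide displaced from hairpin DNA.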 Conditions: DNA fluorescent intercalator displacement, at 7.9 µM, active compounds read high.
As to `O=C(OC1CN2CCC1CC2)C1c2ccccc2C=Cc2ccccc21` (centres undefined), the inhibition (in general, the change of the read-out against control, counted positive when it falls) is inactive: 10.5%.

Consider `CCOC(=O)N1CCC(Nc2ccc(C)cc2)CC1`, for which the inhibition was inactive: -4.43%.

Take `N/C(=N\O)c1c(N)no[n+]1[O-]`: the inhibition was inactive: -1.36%.

Consider `COc1ccc(C(=O)NCC2(N3CCOCC3)CCCCC2)cc1OC`, for which the inhibition is inactive: -5.63%.

For the molecule `CN(C)C1(CNC(=O)c2cccc(C#N)c2)CCCCC1`, the inhibition was inactive: -3.24%.

As to `c1ccc(CN2CCC(Nc3ccccc3)CC2)cc1`, the inhibition is inactive: 2.83%.

`CCCN1CCC(Nc2cc(OC)cc(OC)c2)CC1`: the inhibition is inactive: -0.37%.

`N#Cc1ccc(C(=O)NCC2(N3CCCCC3)CCCCC2)cc1`: the inhibition was inactive: 9.87%.

For the molecule `CC(C)(C)OC(=O)N1CCC(N(C(=O)c2ccccc2)c2ccc(Cl)cc2)CC1`, the inhibition is inactive: -47.3%.

On to `CN(C)c1ccc(C(=O)NCC2(N3CCCCC3)CCCCC2)cc1`, for which the inhibition was inactive: 1.92%.

With `CCN1CCC(Nc2cccc(F)c2)CC1`, the inhibition was inactive: 3.41%.

Regarding `COc1cc(OC)cc(C(=O)NCC2(N3CCCCC3)CCCCC2)c1`, the inhibition was inactive: 4.67%.

With `CN1CCC(Nc2ccc(Cl)cc2)CC1`, the inhibition was inactive: 4.46%.

`CCCOc1ccc(C)cc1CN(CCCl)CCCl`: the inhibition was inactive: 9.79%.

Consider `COc1cccc(C(=O)N(c2cc(C)cc(C)c2)C2CCN(C(=O)OC(C)(C)C)CC2)c1`, for which the inhibition was inactive: -39.1%.

Regarding `COc1cc(OC)cc(C(=O)NCC2(N3CCOCC3)CCCCC2)c1`, the inhibition is inactive: -4.54%.

On to `CCC(CO)(C(=O)OC1CN2CCC1CC2)c1ccccc1` (centres undefined), for which the inhibition is inactive: 3.78%.

As for `CC(C)(C)OC(=O)N1CCC(Nc2ccccc2)CC1`, the inhibition was inactive: -15.6%.

For `O=C(O)C1(Nc2ccccc2)CCN(Cc2ccccc2)CC1`, the inhibition was inactive: -5.17%.

As to `CCCOc1ccc(C(=O)NCC2(N(C)C)CCCCC2)cc1`, the inhibition is inactive: 2.46%.

As for `CCOc1ncccc1C(=O)NCC1(N2CCOCC2)CCCCC1`, the inhibition is inactive: -9.58%.

Turning to `CN1CCC(Nc2ccc(F)c(Cl)c2)CC1`, the inhibition was inactive: 2.13%.

With `N#CC1(Nc2ccccc2)CCN(Cc2ccccc2)CC1`, the inhibition was inactive: -0.86%.

Consider `O=C(OC1CN2CCC1CC2)C1c2ccccc2Oc2ccccc21` (centres undefined), for which the inhibition is inactive: 18.2%.

As for `CCOC(=O)N1CCC(Nc2ccc(OC)cc2)CC1`, the inhibition was inactive: 0.34%.

Consider `Cc1cc(C)cc(N(C(=O)c2ccccc2)C2CCN(C(=O)OC(C)(C)C)CC2)c1`, for which the inhibition was inactive: -53.7%.

In the case of `O=C(NCC1(N2CCOCC2)CCCCC1)c1cc2ccccc2o1`, the inhibition was inactive: -10.5%.

Take `CSc1ccccc1C(=O)NCC1(N2CCCCC2)CCCCC1`: the inhibition is inactive: -5.55%.

On to `COc1ccc(C(=O)NCC2(N3CCCCC3)CCCCC2)cc1`, for which the inhibition was inactive: -9.87%.

Regarding `CC(C)(C)OC(=O)N1CCC(N(C(=O)c2ccccc2)c2ccc(F)cc2)CC1`, the inhibition is inactive: -31.3%.

Consider `COc1ccc(C(=O)NCC2(N3CCCCC3)CCCCC2)c(OC)c1OC`, for which the inhibition is inactive: 2.38%.

In the case of `O=C(NCC1(N2CCCCC2)CCCCC1)c1ccc(=O)[nH]c1`, the inhibition was inactive: -0.81%.

For the molecule `CCOC(=O)N1CCC(Nc2cccc(C)c2)CC1`, the inhibition is inactive: -4.91%.

For `COc1cc(C(=O)NCC2(N(C)C)CCCCC2)ccc1OC(F)F`, the inhibition was inactive: 0.42%.

For the molecule `Cc1ccc(OCC(C)C)c(CN(CCCl)CCCl)c1`, the inhibition is inactive: 18.8%.

For `O=C(NCC1(N2CCCCC2)CCCCC1)c1ccc(F)cc1`, the inhibition was inactive: -2.79%.

Take `CCOC(=O)N1CCC(Nc2ccc(F)cc2)CC1`: the inhibition is inactive: -2.14%.

As to `COc1ccc(NC2CCN(CCc3ccccc3)CC2)c(OC)c1`, the inhibition was inactive: 11.3%.

In the case of `CCOc1ccc(C)cc1CN(CCCl)CCCl`, the inhibition is inactive: 6.18%.

On to `O=C(NCC1(N2CCOCC2)CCCCC1)c1cc(=O)[nH]c2ccccc12`, for which the inhibition is inactive: -7.11%.

As to `COc1cc(C(=O)NCC2(N3CCCCC3)CCCCC2)ccc1OC(F)F`, the inhibition is inactive: 2.5%.

On to `COc1ccc(NC2CCN(C(=O)OC(C)(C)C)CC2)cc1`, for which the inhibition was inactive: -6.08%.

Take `CN1CCN(CCOC(=O)C(O)(c2ccccc2)c2ccccc2)CC1`: the inhibition was inactive: 4.31%.

Consider `O=C(NCC1(N2CCCCC2)CCCCC1)c1cccc(C(F)(F)F)c1`, for which the inhibition is inactive: 2.78%.

Consider `CCN1CCC(Nc2ccc(Cl)cc2)CC1`, for which the inhibition is inactive: 0.4%.

Consider `N#CC1(Nc2ccccc2)CCN(CCc2ccccc2)CC1`, for which the inhibition is inactive: 0.77%.

Regarding `O=C(NCC1(N2CCCCC2)CCCCC1)c1cccc([N+](=O)[O-])c1`, the inhibition was inactive: 4.8%.

As to `O=C(NCC1(N2CCCCC2)CCCCC1)c1ccc(OC(F)F)cc1`, the inhibition is inactive: -0.65%.

As for `CCCOc1ccc(C(=O)NCC2(N(C)C)CCCCC2)cc1OC`, the inhibition is inactive: 3.48%.

Regarding `CN1CCC(Nc2cccc(F)c2)CC1`, the inhibition was inactive: 12.3%.

Regarding `COc1cc(OC)c(C(=O)NCC2(N(C)C)CCCCC2)cc1OC`, the inhibition is inactive: -0.64%.

`CC(C)c1ccc(NC2CCN(C(=O)OC(C)(C)C)CC2)cc1`: the inhibition was inactive: -19.8%.

As to `COc1ccc(CN(CCCl)CCCl)cc1Cl`, the inhibition was inactive: 2.02%.

With `CN(C)c1cccc(C(=O)NCC2(N3CCCCC3)CCCCC2)c1`, the inhibition was inactive: 6.24%.
